Results of unrelated studies side by side (data: NIAID ChemDB).

All rows: whole-cell or culture tests; agent: Hepatitis C virus; endpoint: EC50

ECn: concentration that inhibits the pathogen or its effect by n%. a–b is a range or a potency band. Lines come from different laboratories, so protocols vary. An empty or dashed field is not shown.

smiles | read by | changes | strain | cells | value
Cc1cc(I)ccc1Nc1s[nH]c(=O)c1C#N | replicon |  |  | Huh7 | 10–50 µM
COc1cccc(CC(=O)N/N=C/c2ccccc2OS(=O)(=O)c2ccc3nsnc3c2)c1 | replicon |  |  | Huh7 | <5 µM
Cc1cc(Br)ccc1C(=O)N(c1cc(-c2ccc(-c3cn4ccccc4n3)cc2)sc1C(=O)O)C(C)C | luciferase / replicon |  | 1b |  | 0.1–0.5 µM
CNC(=O)c1c(-c2ccc(F)cc2)oc2cc(C3NC(=O)NC3=O)c(OC)cc12 | replicon |  |  | Huh7 | <10 µM
Cc1noc(C)c1C(=O)Nc1ccc(-c2cc(N(C(=O)C3CCC(C)CC3)C(C)C)c(C(=O)O)s2)cc1 | replicon |  | 1a |  | >0.5 µM
COC(=O)N[C@H](C(=O)N1CCCC1c1ncc(-c2ccc(-c3ccc(-c4cnc([C@@H]5CC(C)CN5C(=O)[C@@H](NC(=O)CO)C(C)C)[nH]4)cc3)cc2)[nH]1)C(C)C | luciferase |  | 1a | Luc1a.1.19 | 0.0000231 µM
CC1(C)CC(=O)C2=C(C1)Nc1c(O)cccc1N(C(=O)CCC(=O)O)[C@@H]2c1ccc(OCc2ccccc2)cc1Cl | luciferase / reporter gene / replicon |  | 1b |  | >100 µM
CNC(=O)c1c(-c2ccc(F)cc2)oc2cc(N3CCOCC3)c(OCc3cnc[nH]3)cc12 | replicon |  |  | Huh7 | <10 µM
Fc1ccc(CNc2nc(O[C@H]3CCOC3)c3nc(-c4ccc(F)cc4)ccc3n2)cc1 | replicon |  |  |  | <0.1 µM
CC(C)c1cccc(C(F)(F)F)c1-c1cc(-c2cccc(NC(=O)C(Cl)Cl)c2)on1 | replicon |  |  |  | ≤10 µM
N#Cc1c(Nc2ccc(C(=O)O)cc2)s[nH]c1=O | replicon |  |  | Huh7 | >50 µM
CNC(=O)c1c(-c2ccc(F)cc2)oc2cc(N(C)S(C)(=O)=O)c(C(N)=O)c(OC)c12 | replicon |  |  | Huh7 | <1 µM
O=C(O)/C=C/c1ccc(NC(=O)C2(NC(=O)c3ccc4c(c3)nc(-c3cccs3)n4C3CCCCC3)CCCC2)cc1 |  |  |  | Huh7 | ≤5 µM
CC(C)N(C(=O)c1ccc(Cl)cc1Cl)c1cc(-c2ccc(-c3cc4nccc(N)n4n3)cc2)sc1C(=O)O | replicon / ELISA |  | 1b |  | 0.005–0.01 µM
NS(=O)(=O)c1ccc(CNc2nc(NCC(F)(F)F)c3nc(-c4ccc(NC(=O)C5(O)CC5)cc4)ccc3n2)cc1 | replicon |  |  |  | <0.1 µM
CN(C)C(=O)c1ccc2c(C3CCCCC3)c3n(c2c1)CC(C(=O)N1CCOCC1)=Cc1ccccc1-3 | replicon |  |  | Huh7 | 1–10 µM
S=C(NCc1ccccc1)Nc1ccc2c(c1)Cc1cc(Br)ccc1-2 | reporter gene / fluorescence |  |  | Ava5-EG(delta4AB)SEAP | 0.001–1 µM
O=C(Nc1cccc(-c2cc(-c3c(Cl)cc(OCCCN4CCOCC4)cc3Cl)no2)c1)C(Cl)Cl | replicon |  |  |  | ≤10 µM
CCOc1nc(NCc2ccc(F)cc2)nc2ccc(-c3ccc(F)c(S(N)(=O)=O)c3)nc12 | replicon |  |  |  | <0.1 µM
N#Cc1c(Nc2cccc([N+](=O)[O-])c2)s[nH]c1=O | replicon |  |  | Huh7 | 1–10 µM
O=C(NS(=O)(=O)N1CCCC1)c1ccc2c(C3CCCCC3)c3n(c2c1)CC(C(=O)N1CCOCC1)Cc1ccccc1-3 | replicon |  |  | Huh7 | 0.01–1 µM
NC(=S)Nc1cccc(OCCCCCOc2ccc(-n3cccc3)cc2)c1 | reporter gene / fluorescence |  |  | Ava5-EG(delta4AB)SEAP | 0.001–1 µM
COc1cccc(CC(=O)N/N=C/c2cccc(OC)c2OS(=O)(=O)c2ccc(C)cc2)c1 | replicon |  |  | Huh7 | 5–50 µM
O=C(NC1(C(=O)Nc2ccc3[nH]c(C(=O)O)cc3c2)CCCC1)c1ccc2c(c1)nc(-c1ccoc1)n2C1CCCCC1 |  |  |  | Huh7 | 5–50 µM
CC(C)(C)OC(=O)N1CCn2c(c(C3CCCCC3)c3ccc(C(=O)O)cc32)-c2ccccc21 | replicon |  |  | Huh7 | 1–10 µM
CNC(=O)c1c(-c2ccc(F)cc2)oc2cc(C(C)(C)N)c(OC(C)C)cc12 | replicon |  |  | Huh7 | <1 µM
CC(C)Nc1nc(Nc2ccc(F)cc2)nc2ccc(-c3ccc(F)cc3)nc12 | replicon |  |  |  | 0.25–2 µM
Cc1cc(-c2nnc(NC3CC(O)(C(F)F)C3)o2)nc2c(C(C)(C)C)cc(NCC(F)(F)F)cc12 |  |  | GT 1b WT | Huh7 | 0.00008 µM
CC(C)N(C(=O)c1ccc(Cl)cc1Cl)c1cc(-c2ccccc2)sc1C(=O)O | luciferase / replicon |  | 1a |  | 1–5 µM
Cc1ccc(S(=O)(=O)Oc2cccc(F)c2/C=N/NC(=O)Cc2cccc(Cl)c2)cc1 | replicon |  |  | Huh7 | 5–50 µM
O=C(Nc1cccc(-c2cc(-c3c(O)cccc3Cl)no2)c1)C(Cl)Cl | replicon |  |  |  | ≤10 µM
COc1cc(CNC(=O)c2ccc3c(C4CCCCC4)c4n(c3c2)CC(C(=O)N2CCOCC2)=Cc2ccccc2-4)ccc1O | replicon |  |  | Huh7 | 0.01–1 µM
Cc1cc(-c2nnc(N[C@@H]3CCC[C@H](O)C3)o2)nc2c(C(C)(C)C)cc(NCC(F)(F)F)cc12 | luciferase |  | 2a - JFH | Huh7 | 0.003 µM
CCc1cc(C(=O)Nc2ccc(-c3cc(N(C(=O)C4CCC(C)CC4)C(C)C)c(C(=O)O)s3)cc2)no1 | replicon |  | 1b |  | <0.5 µM
CNC(=O)c1c(-c2ccc(F)cc2)oc2ccc(OCc3cccc(C(=O)O)c3)cc12 | replicon |  |  | Huh7 | >30 µM
CC1(C)CC(=O)C2=C(C1)Nc1c(O)cccc1N(C(=O)OCC(=O)O)C2c1ccc(OCc2ccccc2)cc1Cl | luciferase / reporter gene / replicon |  | 1b |  | 57.62 µM
CCOc1nc(N)nc2ccc(-c3ccc(C(=O)NC4CCCC4)cc3)nc12 | replicon |  |  | Huh7 | 0.3–1 µM
O=C(O)/C=C/c1ccc(NC(=O)C2(NC(=O)c3ccc4c(c3)nc(-c3ccccn3)n4C3CCCC3)CCCC2)cc1 |  |  |  | Huh7 | 5–50 µM
COC(=O)C1=Cc2cccnc2-c2c(C3CCCCC3)c3ccc(C(=O)OC)cc3n2C1 | replicon |  |  | Huh7 | 1–10 µM
CNC(=O)c1c(-c2ccc(F)cc2)oc2cc(N(Cc3ccc(OC)cc3)S(C)(=O)=O)c(OCc3ccc(OC)cc3)cc12 | replicon |  |  | Huh7 | <1 µM
O=C(O)/C=C/c1ccc(NC(=O)CNC(=O)c2ccc3c(c2)nc(-c2ccoc2)n3C2CCCCC2)cc1 |  |  |  | Huh7 | 5–50 µM
N#Cc1c(Nc2ccc(Cl)c(Cl)c2)s[nH]c1=O | replicon |  |  | Huh7 | <1 µM
CSc1cccc(F)c1-c1cc(-c2cccc(NC(=O)C(Cl)Cl)c2)on1 | replicon |  |  |  | ≤10 µM
COc1c(-c2ccc3cc(NS(C)(=O)=O)ccc3c2)cc(-n2ccc(=O)[nH]c2=O)cc1C(C)(C)C | luciferase | Y448C | genotype 1b Con1 | Huh7 | 0.244 µM
COCC(C)N(C(=O)c1ccc(Cl)cc1F)c1cc(-c2ccc(-c3cc4ncccn4n3)cc2)sc1C(=O)O | luciferase / replicon |  | 1b |  | 0.005–0.01 µM
O=C(N/N=C/c1ccccc1OS(=O)(=O)c1ccc(C(F)(F)F)cc1)c1cccnc1 | replicon |  |  | Huh7 | 5–50 µM
CC1CCC(C(=O)N(c2cc(-c3cnc(NC(=O)c4cscn4)c(Cl)c3)sc2C(=O)O)C(C)C)CC1 | replicon |  | 1b |  | <0.5 µM
Nc1cc(-c2ccc3nc(NCc4ccc(S(N)(=O)=O)cc4)nc(NCC(F)(F)F)c3n2)ccn1 | replicon |  |  |  | <0.1 µM
CC(=O)N1c2cccc(O)c2NC2=C(C(=O)CC(C)(C)C2)C1c1ccc(OCc2cccc(Br)c2)cc1Cl | luciferase / reporter gene / replicon |  | 1b |  | 19.22 µM
C/[N+](=C\c1ccccc1OS(=O)(=O)c1ccc(C(F)(F)F)cc1)NC(=O)Cc1ccccc1 | replicon |  |  | Huh7 | >50 µM
NC(=S)Nc1cccc(OCCCCCOc2ccc(Cl)c3ccccc23)c1 | reporter gene / fluorescence |  |  | Ava5-EG(delta4AB)SEAP | 0.001–1 µM
CC(C)(C)OC(=O)N1/C=C\CCn2c(c(C3CCCCC3)c3ccc(C(=O)O)cc32)-c2ccccc21 | replicon |  |  | Huh7 | 1–10 µM
NS(=O)(=O)c1ccc(CNc2nc(NC3CC3)c3nc(-c4ccc(C(=O)NC5CC5)cc4)ccc3n2)cc1 | replicon |  |  |  | <0.1 µM
Cc1cc(C)c(-c2cc(-c3cccc(NC(=O)C(Cl)Cl)c3)on2)c(C)c1 | replicon |  |  |  | ≤10 µM
O=C(Cc1ccccc1)N/N=C/c1ccccc1OS(=O)(=O)c1ccc(F)cc1 | replicon |  |  | Huh7 | 5–50 µM
CCCCN1CCN(C(=S)Nc2cccc(OCc3ccccc3)c2)C1=S | reporter gene / fluorescence |  |  | Ava5-EG(delta4AB)SEAP | 0.001–1 µM
CCCCn1c(=O)c2cc(OC)ccc2c2cc(C(O)(C(F)(F)F)C(F)(F)F)c(OC)cc21 | PCR |  | 1b | LucNeo2 cells | 0.25 µM
COc1cc(CNC(=O)c2ccc3c(C4CCCCC4)c4n(c3c2)CC(=O)Nc2ccccc2-4)ccc1O | replicon |  |  | Huh7 | 0.01–1 µM
CC1CCC(C(=O)N(c2cc(-c3ccc(NC(=O)c4cn(C)cn4)cc3)sc2C(=O)O)C(C)C)CC1 | replicon |  | 1b |  | <0.5 µM
CC(C)N(C(=O)c1ccc(Cl)cc1F)c1cc(-c2ccc(-c3cc4ncccn4n3)cc2)sc1C(=O)O | luciferase / replicon |  | 1a |  | 0.01–0.05 µM
O=C(N[C@@H](C(=O)N1CCC[C@H]1c1ncc(-c2ccc(-c3ccc(-c4cnc([C@@H]5CCCN5C(=O)[C@H](NC(=O)C5CC5)c5ccccc5)s4)cc3)cc2)s1)c1ccccc1)C1CC1 | luciferase / reporter gene | Y93N+V153M+M202L+M265V | genotype 1b | Huh7.5 | 0.0273 µM
CN(C)S(=O)(=O)NC(=O)c1ccc2c(C3CCCCC3)c3n(c2c1)CC(C(=O)N1CCN(c2ccncc2)CC1)=Cc1ccccc1-3 | replicon |  |  | Huh7 | 0.01–1 µM
NC(=S)Nc1cccc(OCCCCCCc2ccccc2)c1 | reporter gene / fluorescence |  |  | Ava5-EG(delta4AB)SEAP | 0.001–1 µM
NS(=O)(=O)c1ccc(CNc2nc(NCC(F)(F)F)c3nc(-c4ccc(O)cc4)ccc3n2)cc1 | replicon |  |  |  | <0.1 µM
O=C(Nc1cccc(-c2cc(-c3ccccc3C3CCCC3)no2)c1)C(Cl)Cl | replicon |  |  |  | ≤10 µM
O=C(Cc1nc(-c2cnccn2)no1)N/N=C/c1ccccc1OS(=O)(=O)c1ccc(C(F)(F)F)cc1 | replicon |  |  | Huh7 | 5–50 µM
CCOc1nc(NCc2ccc(S(N)(=O)=O)cc2)nc2ccc(-c3ccc(NC(=O)[C@@H](N)[C@H](C)O)cc3)nc12 | replicon |  |  |  | <0.1 µM
Cc1cc(-c2cc(N(C(=O)C3CCC(C)CC3)C(C)C)c(C(=O)O)s2)cnc1NC(=O)c1ccc(F)cc1 | replicon |  | 1a |  | <0.5 µM
CNC(=O)c1c(-c2ccccc2)oc2ccc(OC)cc12 | replicon |  |  | Huh7 | <10 µM
O=C(N/N=C/c1ccccc1OS(=O)(=O)c1ccc(C(F)(F)F)cc1)c1c(F)cccc1F | replicon |  |  | Huh7 | <5 µM
CCc1oc(C)nc1C(=O)N1c2cccc(O)c2NC2=C(C(=O)CC(C)(C)C2)C1c1ccc(OCc2ccccc2)cc1F | luciferase / reporter gene / replicon |  | 1b |  | 2.91 µM
N#Cc1c(Nc2ccc(C(=O)c3ccccc3)cc2)s[nH]c1=O | replicon |  |  | Huh7 | 10–50 µM
Cc1cc(C(=O)N2c3cccc(O)c3NC3=C(C(=O)CC(C)(C)C3)[C@@H]2c2ccc(OCc3ccccc3)cc2F)no1 | luciferase / reporter gene / replicon |  | 1b |  | 0.87 µM
COc1cccc(CC(=O)N/N=C/c2ccc(Cl)cc2OS(=O)(=O)c2ccc(C)cc2)c1 | replicon |  |  | Huh7 | <5 µM

8 of the rows above, restated:

smiles,read by,changes,strain,cells,value
CCOc1nc(NCc2ccc(S(N)(=O)=O)cc2)nc2ccc(-c3ccc(NC(=O)[C@@H](N)[C@H](C)O)cc3)nc12,replicon,,,,<0.1 µM
CC(C)c1cccc(C(F)(F)F)c1-c1cc(-c2cccc(NC(=O)C(Cl)Cl)c2)on1,replicon,,,,≤10 µM
CN(C)S(=O)(=O)NC(=O)c1ccc2c(C3CCCCC3)c3n(c2c1)CC(C(=O)N1CCN(c2ccncc2)CC1)=Cc1ccccc1-3,replicon,,,Huh7,0.01–1 µM
CCc1oc(C)nc1C(=O)N1c2cccc(O)c2NC2=C(C(=O)CC(C)(C)C2)C1c1ccc(OCc2ccccc2)cc1F,luciferase / reporter gene / replicon,,1b,,2.91 µM
CNC(=O)c1c(-c2ccc(F)cc2)oc2ccc(OCc3cccc(C(=O)O)c3)cc12,replicon,,,Huh7,>30 µM
CC1CCC(C(=O)N(c2cc(-c3ccc(NC(=O)c4cn(C)cn4)cc3)sc2C(=O)O)C(C)C)CC1,replicon,,1b,,<0.5 µM
COc1cc(CNC(=O)c2ccc3c(C4CCCCC4)c4n(c3c2)CC(=O)Nc2ccccc2-4)ccc1O,replicon,,,Huh7,0.01–1 µM
O=C(NS(=O)(=O)N1CCCC1)c1ccc2c(C3CCCCC3)c3n(c2c1)CC(C(=O)N1CCOCC1)Cc1ccccc1-3,replicon,,,Huh7,0.01–1 µM